Reference: the supplement of paper PMC9931576
Human monoclonal antibodies against the spike receptor-binding domain (heavy:light variable regions). IC50 against pseudoviruses bearing the spike of naturally observed variants; lower = stronger; >10 µg/ml means not reached at the top dose. No active / inactive call. The stated detection limit is 0.0005 µg/ml; values near or below 0.001 µg/ml lie at the floor of the assay.

B1: BD55-5588 (protein)
chain 1: QITLKESGPTLVKPTQTLTLTCTFSGFSLSTTEVSVGWIRQSPGKALEWLALIYWDDGKRYSPTLESRLTITKDTSKNQVVLVMTHMDPVDTATYFCVHSHFDLSTGYFGFDFWGQGILVTVSS
chain 2: DIVMTQTPLSSPVTLGQPASISCRSSQSLVHSDGNTYLSWFHQRPGQPPRLLIYKVSNRFSGVPDRFSGSGAGTDFTLKISRVEAEDVGVYYCMQATQFPHEMYTFGQGTKLEIK
B2: BD55-5585 (protein)
chain 1: QLQLQESGPGLVKPSEILSLTCTVSGGSISSGTDYWGWIRQPPGKGLEWIGSIYYSGSTSYSPSLKSRVTISVDTFKNQFSLKLNSVTAADTAVYYCARHLGQRSLWLLPLYFDYWGQGALVTVSS
chain 2: SYDLTQPPSVSVSPGQTARITCSGDALPNQYAYWYQQKPGQAPVLAIYKDTERPSGIPERFSGSTSGTTATLTISGVQADDEADYYCQSADSSTTYVVFGGGTKLTVL
B3: BD55-5583 (protein)
chain 1: QVQLVQSGAEVKKPGASVKLSCKGSGYIFSNYGINWVRQTPGQGLEWMGWIGANNRNTDSAQKLQDRLTFTTDTSASTAYMELRSLTSDDTAVYYCARGAHYWGPEDAFDVWGQGTMVTVSS
chain 2: DVVLTQSPLSLPVTLGQPASISCRSSQSVVYSDGDTYLNWFQQRPGQSPRRLIYKVSNRDSGVPDRFSGSGSGTDFTLKISRVEAEDVGVYYCMQGTNWPRTFGQGTKVEIK
B4: BD55-1078 (protein)
chain 1: QVQLVQSGAEVKKPGSSVKVSCKASGDTFTRFAISWVRQAPGQGPEWMGRIIPMFGIANYAHQFQGRVTITADKSTNTAYMELSSLRSEDTAFFYCARDHYLDNSVPRLDYWGQGTLVTVSS
chain 2: DIQMTQSPSSLSASVGDRVTITCRASQSIAGYLNWYQQKPGKAPNLLIYATSTLHSGVPSRFSGSGSGTDYTLTISSLQREDFATYYCQQTHSAPRTFGQGTKVEIK
B5: BD55-5581 (protein)
chain 1: QVQLVQSGPEVKKPGASVKVSCKASGYAFTSQYIHWVRLAPGQGLQWMGIINPGAGSTTYAQSFRGRVTMTSDTSTSTVYLELSSLRNEDTAVYYCARDRVFVPAASDLDYWGQGTLVTVSS
chain 2: EIVLTQSPATLSLSPGERATLSCRASQSVGTYLAWYQQKPGQAPRLLIYDASNRATGVPARFSGSGSGTDFTLTISSLEPEDFAVYYCQQRSHWPPTWTFGQGTKVEIK
B6: BD55-5580 (protein)
chain 1: QVQLVQSGAEVKKPGASVKVSCKASGFNFTIYSISWVRQAPGQGLEWMGRIGAYNGDTNYAQKVQGRVTMTTDTFTNTAYMELRGLTSDDTAVFYCAREYCTSYGCYDLDSWGQGTLVTVSS
chain 2: QSVLTQPPSASGTPGQRVTISCSGSISNIGSNFVYWYQQFPGTAPKLLIYRSNQRPSGVPDRFSGSKSGTSASLAISGLRSEDEADYYCAAWDDILTGRVFGGGTKLTVL

target: SARS-CoV-2 Omicron BA.1 spike pseudovirus; experiment: pseudovirus neutralization IC50; higher = weaker neutralization
Protocol: (§1)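 Single-round VSV luciferase pseudovirus mixed with antibody dilutions for 1 h and put on Huh-7 cells for about a day; IC50 from the dose curve.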

Row | Binder | pseudovirus neutralization IC50
1 | B1 | > 10 µg/mL
2 | B2 | 0.0132 µg/mL
3 | B3 | 1.27 µg/mL
4 | B4 | > 10 µg/mL
5 | B5 | > 10 µg/mL
6 | B6 | > 10 µg/mL

target: SARS-CoV-2 Omicron BA.2 spike pseudovirus; experiment: as above
Protocol: as §1

Row | Binder | pseudovirus neutralization IC50
7 | B1 | > 10 µg/mL
8 | B2 | 0.164 µg/mL
9 | B3 | 1.66 µg/mL
10 | B4 | > 10 µg/mL
11 | B5 | > 10 µg/mL
12 | B6 | > 10 µg/mL

target: SARS-CoV-2 Omicron BA.2.75 spike pseudovirus; experiment: as above
Protocol: as §1

Row | Binder | pseudovirus neutralization IC50
13 | B1 | > 10 µg/mL
14 | B2 | 0.306 µg/mL
15 | B3 | 1.04 µg/mL
16 | B4 | > 10 µg/mL
17 | B5 | > 10 µg/mL
18 | B6 | > 10 µg/mL

target: SARS-CoV-2 Omicron BA.5 spike pseudovirus; experiment: as above
Protocol: as §1

Row | Binder | pseudovirus neutralization IC50
19 | B1 | > 10 µg/mL
20 | B2 | 0.269 µg/mL
21 | B3 | 1.47 µg/mL
22 | B4 | > 10 µg/mL
23 | B5 | > 10 µg/mL
24 | B6 | > 10 µg/mL

target: SARS-CoV-2 Omicron BQ.1.1 spike pseudovirus; experiment: as above
Protocol: as §1

Row | Binder | pseudovirus neutralization IC50
25 | B1 | > 10 µg/mL
26 | B2 | > 10 µg/mL
27 | B3 | 2.02 µg/mL
28 | B4 | > 10 µg/mL
29 | B5 | > 10 µg/mL
30 | B6 | > 10 µg/mL

target: SARS-CoV-2 Omicron XBB spike pseudovirus; experiment: as above
Protocol: as §1

Row | Binder | pseudovirus neutralization IC50
31 | B1 | > 10 µg/mL
32 | B2 | > 10 µg/mL
33 | B3 | 2.09 µg/mL
34 | B4 | > 10 µg/mL
35 | B5 | > 10 µg/mL
36 | B6 | > 10 µg/mL

target: SARS-CoV-2 early D614G spike pseudovirus; experiment: as above
Protocol: as §1

Row | Binder | pseudovirus neutralization IC50
37 | B1 | 0.0636 µg/mL
38 | B2 | 0.00213 µg/mL
39 | B3 | 0.125 µg/mL
40 | B4 | 0.001 µg/mL
41 | B5 | > 10 µg/mL
42 | B6 | 0.0361 µg/mL
